Experimental data from patent US20040121316A1 (priority 2002, published 2004).

What was measured:
84V90M HIV protease = 84V90M HIV protease (Human immunodeficiency virus type 1 group M subtype B, UniProt P04585, I572V/L578M); type: biochemical, HIV-1; settings: Enzymatic assay
HIV-1 84V90M = settings: MT-4, 84V90M; read-out: Cell-based assay (MT-4) EC50/nM 84V90M
[1] = tested on: recombinant HIV-1 8K 46I 90M; assay: Cross-Resistance Profile Assay; type: cell-based; settings: protease mutations 8K 46I 90M
[2] = tested on: recombinant HIV-1 46I 47V 50V; type: cell-based; settings: protease mutations 46I 47V 50V
[3] = tested on: recombinant HIV-1 10F 46I 71V 82T 90M; assay: Cross-Resistance Profile Assay; type: cell-based; settings: protease mutations 10F 46I 71V 82T 90M
[4] = tested on: recombinant HIV-1 48V 54V 71V 82S; type: cell-based; settings: protease mutations 48V 54V 71V 82S
[5] = tested on: recombinant HIV-1 10I 48V 54V 82A; settings: protease mutations 10I 48V 54V 82A
[6] = tested on: recombinant HIV-1 30N 50S 82I 88D; settings: protease mutations 30N 50S 82I 88D
[7] = tested on: recombinant HIV-1 10I 48V 71V 82A 90M; settings: protease mutations 10I 48V 71V 82A 90M
[8] = tested on: recombinant HIV-1 10I 84V 71V 73S 90M; settings: protease mutations 10I 84V 71V 73S 90M
[9] = tested on: recombinant HIV-1 46I 84A; assay: Cross-Resistance Profile Assay; settings: protease mutations 46I 84A
[10] = tested on: recombinant HIV-1 10R 46I 82T 84V; assay: Cross-Resistance Profile Assay; settings: protease mutations 10R 46I 82T 84V
[11] = tested on: recombinant HIV-1 54V 71V 82S; assay: Cross-Resistance Profile Assay; settings: protease mutations 54V 71V 82S
mutant HIV-1 I84V/L90M = assay: Resistance Evaluation, I84V/L90M fold change; type: cell-based; settings: EC50 of mutant I84V/L90M relative to wild type; class symbols

Row | Molecule | Fold Change in EC50 Relative to WT HIV-1 [1] [fold] | Fold Change in EC50 Relative to WT HIV-1 [2] [fold] | Fold Change in EC50 Relative to WT HIV-1 [3] [fold] | Fold Change in EC50 Relative to WT HIV-1 [4] [fold] | Fold Change in EC50 Relative to WT HIV-1 [5] [fold] | Fold Change in EC50 Relative to WT HIV-1 [6] [fold] | Fold Change in EC50 Relative to WT HIV-1 [7] [fold] | Fold Change in EC50 Relative to WT HIV-1 [8] [fold] | Fold Change in EC50 Relative to WT HIV-1 [9] [fold] | Fold Change in EC50 Relative to WT HIV-1 [10] [fold] | Fold Change in EC50 Relative to WT HIV-1 [11] [fold] | I84V/L90M fold change (mutant HIV-1 I84V/L90M) | other results
1 | DMP-850 [reference compound] |  |  |  |  |  |  |  |  |  |  |  |  | IC50 (84V90M HIV protease): 9.1 nM; EC50 (HIV-1 84V90M): 819 nM
2 | CCCCOC(=O)C(C)NP(=O)(COc1ccc(CC(NC(=O)OC2COC3OCCC23)C(O)CN(CC(C)C)S(=O)(=O)c2ccc(OC)cc2)cc1)NC(C)C(=O)OCCCC (stereo not drawn) [GS-16503] | 1.2 | 3.3 | 1 | 0.5 | 0.4 | 0.6 | 0.4 | 2 | 1 | 1 | 0.9 |  | 
3 | CCOC(=O)C(C)NP(=O)(COc1ccc(CC(NC(=O)OC2COC3OCCC23)C(O)CN(CC(C)C)S(=O)(=O)c2ccc(OC)cc2)cc1)Oc1ccccc1 (stereo not drawn) [Example 30b] |  |  |  |  |  |  |  |  |  |  |  | − (≦3) | 
4 | CCOC(=O)C(C)NP(=O)(COc1ccc(CC(NC(=O)OC2COC3OCCC23)C(O)CN(CC(C)C)S(=O)(=O)c2ccc(OC)cc2)cc1)Oc1ccccc1 (stereo not drawn) [GS-16571] | 1.8 | 0.8 | 0.8 | 0.2 | 0.3 | 0.7 | 0.2 | 0.9 | 1 | 0.6 | 0.6 |  | 
5 | CCOC(=O)C(C)OP(=O)(COc1ccc(CC(NC(=O)OC2COC3OCCC23)C(O)CN(CC(C)C)S(=O)(=O)c2ccc(OC)cc2)cc1)Oc1ccccc1 (stereo not drawn) [Example 31e] |  |  |  |  |  |  |  |  |  |  |  | − (≦3) | 
6 | CCCCOC(=O)C(C)NP(=O)(COc1ccc(CC(NC(=O)OC2COC3OCCC23)C(O)CN(CC(C)C)S(=O)(=O)c2ccc(OC)cc2)cc1)NC(C)C(=O)OCCCC (stereo not drawn) [drawing 612 R1=Ala-Bu R2=Ala-Bu] |  |  |  |  |  |  |  |  |  |  |  | − (≦3) | 
